Where “and” joins values, the source holds several entries; their conditions need not be identical. Equal entries are not always repeated. Where only a bound is given, the exact number is not on record here.

We go through 20 compounds from patent US20250115620A1, “BRIDGED TRICYCLIC CARBAMOYLPYRIDONE COMPOUNDS AND USES THEREOF” (Gilead Sciences, Inc., priority 2022, published 2025).

This data set relates to pLAI reporter virus. The data set is classed as cell-based, HIV. The following applies: EC50 (50% HS)/EC50 (CCM).
With `COCCOC1=NO[C@@]2(CC[C@H](C)N3C[C@H]2n2cc(C(=O)NCc4c(F)cc(F)cc4F)c(=O)c(O)c2C3=O)C1` [Example 38, (3′S,5S,7′R)-12′-hydroxy-3-(2-methoxyethoxy)-3′-methyl-1′,11′-dioxo-N-(2,4,6-trifluorobenzyl)-1′,4′,5′,11′-tetrahydro-3′H,4H,7′H-spiro[isoxazole-5,6′-[2,7]methanopyrido[1,2-a][1,4]diazonine]-10′-carboxamide], the “RLUC 50% HS Shift” value stood at 5×.

Take `[2H]C([2H])([2H])OC1=NO[C@@]2(CC[C@H](C)N3C[C@H]2n2cc(C(=O)NCc4c(F)cc(F)cc4F)c(=O)c(O)c2C3=O)C1([2H])[2H]` [Example 39, (3′S,5S,7′R)-12′-hydroxy-3-(methoxy-d3)-3′-methyl-1′,11′-dioxo-N-(2,4,6-trifluorobenzyl)-1′,4′,5′,11′-tetrahydro-3′H,4H,7′H-spiro[isoxazole-5,6′-[2,7]methanopyrido[1,2-a][1,4]diazonine]-4,4-d2-10′-carboxamide]: the “RLUC 50% HS Shift” value came out at 118×.

In the case of `COC1=NO[C@@]2(CC[C@H](C)N3C[C@H]2n2cc(C(=O)NCc4ccc(F)cc4F)c(=O)c(O)c2C3=O)C1` [Example 40, (3′S,5S,7′R)—N-(2,4-difluorobenzyl)-12′-hydroxy-3-methoxy-3′-methyl-1′,11′-dioxo-1′,4′,5′,11′-tetrahydro-3′H,4H,7′H-spiro[isoxazole-5,6′-[2,7]methanopyrido[1,2-a][1,4]diazonine]-10′-carboxamide], the “RLUC 50% HS Shift” value is 113× and 112×.

With `COCCOC1=NO[C@@]2(CC[C@H](C)N3C[C@H]2n2cc(C(=O)NCc4ccc(F)cc4F)c(=O)c(O)c2C3=O)C1` [Example 41, (3′S,5S,7′R)—N-(2,4-difluorobenzyl)-12′-hydroxy-3-(2-methoxyethoxy)-3′-methyl-1′,11′-dioxo-1′,4′,5′,11′-tetrahydro-3′H,4H,7′H-spiro[isoxazole-5,6′-[2,7]methanopyrido[1,2-a][1,4]diazonine]-10′-carboxamide], the “RLUC 50% HS Shift” value is recorded as 1×.

Consider `CSC1=NO[C@@]2(CC[C@H](C)N3C[C@H]2n2cc(C(=O)NCc4c(F)cc(F)cc4F)c(=O)c(O)c2C3=O)C1` [Example 43, (3′S,5S,7′R)-12′-hydroxy-3′-methyl-3-(methylthio)-1′,11′-dioxo-N-(2,4,6-trifluorobenzyl)-1′,4′,5′,11′-tetrahydro-3′H,4H,7′H-spiro[isoxazole-5,6′-[2,7]methanopyrido[1,2-a][1,4]diazonine]-10′-carboxamide], for which the “RLUC 50% HS Shift” value was found to be 186×.

`C[C@H]1CC[C@]2(CC(Br)=NO2)[C@H]2CN1C(=O)c1c(O)c(=O)c(C(=O)NCc3ccc(F)cc3F)cn12` [Example 44, (3′S,5S,7′R)-3-bromo-N-(2,4-difluorobenzyl)-12′-hydroxy-3′-methyl-1′,11′-dioxo-1′,4′,5′,11′-tetrahydro-3′H,4H,7′H-spiro[isoxazole-5,6′-[2,7]methanopyrido[1,2-a][1,4]diazonine]-10′-carboxamide]: the “RLUC 50% HS Shift” value stood at 1600×.

As for `C[C@H]1CC[C@]2(CC(OC3COC3)=NO2)[C@H]2CN1C(=O)c1c(O)c(=O)c(C(=O)NCc3ccc(F)cc3F)cn12` [Example 45, (3′S,5S,7′R)—N-(2,4-difluorobenzyl)-12′-hydroxy-3′-methyl-3-(oxetan-3-yloxy)-1′,11′-dioxo-1′,4′,5′,11′-tetrahydro-3′H,4H,7′H-spiro[isoxazole-5,6′-[2,7]methanopyrido[1,2-a][1,4]diazonine]-10′-carboxamide], the “RLUC 50% HS Shift” value was found to be 5×.

As to `C[C@H]1CC[C@]2(CC(OCC(F)(F)F)=NO2)[C@H]2CN1C(=O)c1c(O)c(=O)c(C(=O)NCc3ccc(F)cc3F)cn12` [Example 46, (3′S,5S,7′R)—N-(2,4-difluorobenzyl)-12′-hydroxy-3′-methyl-1′,11′-dioxo-3-(2,2,2-trifluoroethoxy)-1′,4′,5′,11′-tetrahydro-3′H,4H,7′H-spiro[isoxazole-5,6′-[2,7]methanopyrido[1,2-a][1,4]diazonine]-10′-carboxamide], the “RLUC 50% HS Shift” value is reported as 23×.

With `C[C@H]1CC[C@]2(CC(OCC(F)F)=NO2)[C@H]2CN1C(=O)c1c(O)c(=O)c(C(=O)NCc3ccc(F)cc3F)cn12` [Example 47, (3′S,5S,7′R)—N-(2,4-difluorobenzyl)-3-(2,2-difluoroethoxy)-12′-hydroxy-3′-methyl-1′,11′-dioxo-1′,4′,5′,11′-tetrahydro-3′H,4H,7′H-spiro[isoxazole-5,6′-[2,7]methanopyrido[1,2-a][1,4]diazonine]-10′-carboxamide], the “RLUC 50% HS Shift” value stood at 13×.

On to `COC1=NO[C@@]2(C=C[C@H](C)N3C[C@H]2n2cc(C(=O)NCc4ccc(F)c(Cl)c4F)c(=O)c(O)c2C3=O)C1` [Example 48, (3′S,5R,7′R)—N-(3-chloro-2,4-difluorobenzyl)-12′-hydroxy-3-methoxy-3′-methyl-1′,11′-dioxo-1′,11′-dihydro-3′H,4H,7′H-spiro[isoxazole-5,6′-[2,7]methanopyrido[1,2-a][1,4]diazonine]-10′-carboxamide], for which the “RLUC 50% HS Shift” value turned out to be 41×.

For the compound `COC1=NO[C@@]2(CC[C@H](C)N3C[C@H]2n2cc(C(=O)NCc4ccc(F)c(Cl)c4F)c(=O)c(O)c2C3=O)C1` [Example 49, (3′S,5S,7′R)—N-(3-chloro-2,4-difluorobenzyl)-12′-hydroxy-3-methoxy-3′-methyl-1′,11′-dioxo-1′,4′,5′,11′-tetrahydro-3′H,4H,7′H-spiro[isoxazole-5,6′-[2,7]methanopyrido[1,2-a][1,4]diazonine]-10′-carboxamide], the “RLUC 50% HS Shift” value was 415×.

As for `C[C@H]1CC[C@@]2(ON=C3OCCC[C@@H]32)[C@H]2CN1C(=O)c1c(O)c(=O)c(C(=O)NCc3c(F)cc(F)cc3F)cn12` [Example 50, (3S,3a R,3′S,7′R)-12′-hydroxy-3′-methyl-1′,11′-dioxo-N-(2,4,6-trifluorobenzyl)-1′,3a,4,4′,5,5′,6,11′-octahydro-3′H,7′H-spiro[pyrano[2,3-c]isoxazole-3,6′-[2,7]methanopyrido[1,2-a][1,4]diazonine]-10′-carboxamide], the “RLUC 50% HS Shift” value is recorded as 21×.

With `CNC1=NO[C@@]2(CC[C@H](C)N3C[C@H]2n2cc(C(=O)NCc4c(F)cc(F)cc4F)c(=O)c(O)c2C3=O)C1` [Example 51, (3′S,5S,7′R)-12′-hydroxy-3′-methyl-3-(methylamino)-1′,11′-dioxo-N-(2,4,6-trifluorobenzyl)-1′,4′,5′,11′-tetrahydro-3′H,4H,7′H-spiro[isoxazole-5,6′-[2,7]methanopyrido[1,2-a][1,4]diazonine]-10′-carboxamide], the “RLUC 50% HS Shift” value is given as 17×.

Regarding `C[C@H]1CC[C@]2(CC(N(C)C)=NO2)[C@H]2CN1C(=O)c1c(O)c(=O)c(C(=O)NCc3c(F)cc(F)cc3F)cn12` [Example 52, (3′S,5S,7′R)-3-(dimethylamino)-12′-hydroxy-3′-methyl-1′,11′-dioxo-N-(2,4,6-trifluorobenzyl)-1′,4′,5′,11′-tetrahydro-3′H,4H,7′H-spiro[isoxazole-5,6′-[2,7]methanopyrido[1,2-a][1,4]diazonine]-10′-carboxamide], the “RLUC 50% HS Shift” value was 21×.

As for `C[C@H]1CC[C@]2(CC(Cl)=NO2)[C@H]2CN1C(=O)c1c(O)c(=O)c(C(=O)NCc3c(F)cc(F)cc3F)cn12` [Example 53, (3′S,5S,7′R)-3-chloro-12′-hydroxy-3′-methyl-1′,11′-dioxo-N-(2,4,6-trifluorobenzyl)-1′,4′,5′,11′-tetrahydro-3′H,4H,7′H-spiro[isoxazole-5,6′-[2,7]methanopyrido[1,2-a][1,4]diazonine]-10′-carboxamide], the “RLUC 50% HS Shift” value came to 554×.

For the compound `CC1=NO[C@@]2(CC[C@H](CF)N3C[C@H]2n2cc(C(=O)NCc4c(F)cc(F)cc4F)c(=O)c(O)c2C3=O)C1` [Example 54, (3′R,5S,7′R)-3′-(fluoromethyl)-12′-hydroxy-3-methyl-1′,11′-dioxo-N-(2,4,6-trifluorobenzyl)-1′,4′,5′,11′-tetrahydro-3′H,4H,7′H-spiro[isoxazole-5,6′-[2,7]methanopyrido[1,2-a][1,4]diazonine]-10′-carboxamide], the “RLUC 50% HS Shift” value is given as 179×.

Take `C[C@H]1CC[C@@]2(CCO2)[C@H]2CN1C(=O)c1c(O)c(=O)c(C(=O)NCc3c(F)cc(F)cc3F)cn12` [Example 55, (2R,3′S,7′R)-12′-hydroxy-3′-methyl-1′,11′-dioxo-N-(2,4,6-trifluorobenzyl)-1′,4′,5′,11′-tetrahydro-3′H,7′H-spiro[oxetane-2,6′-[2,7]methanopyrido[1,2-a][1,4]diazonine]-10′-carboxamide]: the “RLUC 50% HS Shift” value is given as 46×.

Regarding `CC1=NCC2(CC[C@H](C)N3C[C@H]2n2cc(C(=O)NCc4ccc(F)cc4F)c(=O)c(O)c2C3=O)O1` (stereo partly drawn) [Example 56, (3′S,7′R)—N-(2,4-difluorobenzyl)-12′-hydroxy-2,3′-dimethyl-1′,11′-dioxo-1′,4′,5′,11′-tetrahydro-3′H,4H,7′H-spiro[oxazole-5,6′-[2,7]methanopyrido[1,2-a][1,4]diazonine]-10′-carboxamide], the “RLUC 50% HS Shift” value is given as 1×.

Turning to `C[C@H]1CC[C@@]2(CNC(=O)C2)[C@H]2CN1C(=O)c1c(O)c(=O)c(C(=O)NCc3c(F)cc(F)cc3F)cn12` [Example 57, (3R,3′S, 7′S)-12′-hydroxy-3′-methyl-1′,5,11′-trioxo-N-(2,4,6-trifluorobenzyl)-1′,4′,5′,11′-tetrahydro-3′H, 7′H-spiro[pyrrolidine-3,6′-[2,7]methanopyrido[ ],2-a][1,4]diazonine-10′-carboxamide], the “RLUC 50% HS Shift” value was less than 1×.

Turning to `C[C@H]1CC[C@@]2(CN(C)C(=O)O2)[C@H]2CN1C(=O)c1c(O)c(=O)c(C(=O)NCc3c(F)cc(F)cc3F)cn12` [Example 60, (3′S,5R,7′R)-12′-hydroxy-3,3′-dimethyl-1′,2,11′-trioxo-N-(2,4,6-trifluorobenzyl)-1′,4′,5′,11′-tetrahydro-3′H,7′H-spiro[oxazolidine-5,6′-[2,7]methanopyrido[1,2-a][1,4]diazonine]-10′-carboxamide], the “RLUC 50% HS Shift” value was 1×.
